Source: PubChem BioAssay AID624099 (ICCB-Longwood, 2012)
Test: 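Knock-downs relieving repression by E2 of an HPV18 LCR luciferase reporter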 (primary screen). Cells: human C33A cervical carcinoma cells (HPV-negative) stably expressing BPV1 E2 and an HPV18 LCR luciferase reporter. Knock-down reagent: siRNA pool against human genes, 40 nM. Time to read-out: 72 h. Detection: 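Per-well luciferase luminescence, z-scored on each plate against the plate mean and SD with control wells left out, then averaged across three replicate plates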. Reading the numbers: mean z-score and z-score: higher = stronger reporter signal, weaker E2 silencing. Rule for the call: 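Mean z ≥ 2 together with z ≥ 2 in two or more of the three replicates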.
This is one part, drawn at random, of about 21,000 reagents tested. 497 of all reagents (2.4%) count as active. 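Higher z means weaker E2 silencing; only reporter increases were scored, and knock-downs that hurt cell survival may mask genuine repressor factors.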

For ELP2, what was measured?
mean z-score: -0.04; z-score, replicate A: 0.16; z-score, replicate B: -0.3; z-score, replicate C: 0.03; call: inactive

With MIOS, what does the deposit list?
mean z-score: 1.84; z-score, replicate A: 1.69; z-score, replicate B: 2; z-score, replicate C: 1.83; call: inactive

For CYRIA, what was measured?
mean z-score: -0.21; z-score, replicate A: -0.44; z-score, replicate B: 0.55; z-score, replicate C: -0.75; call: inactive

With LINC01281, what does the deposit list?
mean z-score: 0.77; z-score, replicate A: 0.52; z-score, replicate B: 0.73; z-score, replicate C: 1.05; call: inactive

Part of the list above, reduced to “z-score, replicate B”:
MIOS	2
CYRIA	0.55

Next results:
For LINC00174, what does the deposit list?
mean z-score: -0.07; z-score, replicate A: -0.16; z-score, replicate B: -0.19; z-score, replicate C: 0.15; call: inactive

What did the screen give for FNTAP1?
mean z-score: -0.15; z-score, replicate A: -0.26; z-score, replicate B: -0.14; z-score, replicate C: -0.04; call: inactive

What is on record for DPF3?
mean z-score: 0.11; z-score, replicate A: -0.24; z-score, replicate B: 0.07; z-score, replicate C: 0.51; call: inactive

With KBTBD2, what does the deposit list?
mean z-score: 1.09; z-score, replicate A: 1.1; z-score, replicate B: 0.93; z-score, replicate C: 1.23; call: inactive

What is on record for COPS6?
mean z-score: -0.39; z-score, replicate A: -0.61; z-score, replicate B: -0.51; z-score, replicate C: -0.04; call: inactive

What is on record for CCKAR?
mean z-score: -0.62; z-score, replicate A: -0.81; z-score, replicate B: -0.6; z-score, replicate C: -0.46; call: inactive

With C1orf167, how do the results read?
mean z-score: -0.92; z-score, replicate A: -0.94; z-score, replicate B: -0.79; z-score, replicate C: -1.05; call: inactive

What did the screen give for TOM1L2?
mean z-score: 0.83; z-score, replicate A: 0.73; z-score, replicate B: 0.7; z-score, replicate C: 1.07; call: inactive
